Pooled drug test results. Numbers come from NIAID ChemDB, via PubChem.

All rows: host cell toxicity; cells: Huh7.5; measure: CC50

An empty or dashed field is not shown. CCn is the concentration with n% toxicity to the cells. Lines come from different laboratories, so protocols vary.

| smiles | read by | value |
|---|---|---|
| O=c1[nH]cnc2c1sc(=S)n2Cc1ccccc1 | MTS | >224 µM |
| CN(C)CC1COc2ccc3nc4n(c3c2C1)CC(CN(C)C)CN4 |  | 86 µM |
| c1ncc(CNc2ccc3ncsc3c2)cn1 | MTT | >200 µM |
| CCC(O)(CC)CCCCCCN1C[C@H](O)[C@@H](O)[C@H](O)[C@H]1CO | MTT | >500 µM |
| CC(=O)c1ccc(NC(=O)C2=c3nc(C)[nH]c(=O)c3=NC2)cc1 | MTS | >224 µM |
| CCOc1ccc2nc(NC(=O)Nc3cccc(OC)c3)sc2c1 | MTT | >100 µM |
| C[C@H]1O[C@@H](O[C@H]2CC[C@@]3(C)[C@@H](CC[C@]4(C)[C@@H]3C=C[C@]35OC[C@@]6(CCC(C)(C)C[C@H]63)[C@H](O)C[C@]54C)[C@]2(C)CO)[C@H](O)[C@@H](O[C@@H]2O[C@H](CO)[C@@H](O)[C@H](O)[C@H]2O)[C@H]1O | XTT | 23.38 µM |
| CC(C)=CCc1c(O)cc2oc3cc(O)c(O)c(CC=C(C)C)c3c(=O)c2c1O | MTT | 8.2 µM |
| CCOC(=O)c1c(C)n(C)c2ccc(CN(C)C)cc12 | resazurin | >50 µM |
| Clc1ccc(Cn2c(CN3CCCC3)nc3ccccc32)cc1 | MTT | 36.4 µM |
| COC(=O)C1=C(C(=O)OC)C2N(CCOCCN3c4ccccc4[C@]45CC(=O)N(Cc6ccccc6)C4=NC(C(=O)OC)=C(C(=O)OC)C35)C3C=CC=CC3[C@@]23CCC(=O)N(Cc2ccccc2)C3=N1 | XTT | >100 µM |
| O=c1[nH]cnc2c1cnn2Cc1ccccc1 | MTS | 96 µM |
| O=C(OC[C@H]1O[C@@H](OC(=O)c2cc(O)c(O)c(OC(=O)c3cc(O)c(O)c(O)c3)c2)[C@H](OC(=O)c2cc(O)c(O)c(OC(=O)c3cc(O)c(O)c(O)c3)c2)[C@@H](OC(=O)c2cc(O)c(O)c(OC(=O)c3cc(O)c(O)c(O)c3)c2)[C@@H]1OC(=O)c1cc(O)c(O)c(OC(=O)c2cc(O)c(O)c(O)c2)c1)c1cc(O)c(O)c(OC(=O)c2cc(O)c(O)c(O)c2)c1 | MTS | 146.1 µM |
| CN1C[C@H](O)[C@@H](O)[C@H](O)[C@H]1CO | MTT | >500 µM |
| Cc1n[nH]c(=O)c2cc3c(C)n[nH]c(=O)c3cc12 | MTS | >224 µM |
| C/C(=C\c1cn(C(=O)OCc2ccccc2)c2ccc(C#N)cc12)C(=O)Nc1ccc(C(C)(C)C)cc1 | MTT | 21.8 µM |
| CC1=C(/C=C/C(C)=C\C=C\C(C)=C\C(=O)O)C(C)(C)CCC1 | WST | >100 µM |
| COc1ccc2c(c1)c(/C=C(\C)C(=O)Nc1ccc(C(C)(C)C)cc1)cn2CCN(C)C | MTT | >100 µM |
| CC1=C(/C=C/C(C)=C/C=C/C(C)=C\C(=O)O)C(C)(C)CCC1 | WST | >100 µM |
| C=Cc1c2[nH]c(c1C)/C=C1\N=C(CC3=C4N=C(/C=c5\[nH]/c(c(C)c5CC)=C\2)C(C)=C4C(=O)[C@@H]3C(=O)OC)[C@@H](CCC(=O)O)[C@@H]1C | WST | 10 µg/mL |
| C/C(=C\c1cn(CCN2CCOCC2)c2ccccc12)C(=O)Nc1ccc(C(C)(C)C)cc1 | MTT | 19.7 µM |
| CCC[C@H](NC(=O)[C@@H]1[C@H]2CCC[C@H]2CN1C(=O)[C@@H](NC(=O)[C@@H](NC(=O)c1cnccn1)C1CCCCC1)C(C)(C)C)C(=O)C(=O)NC1CC1 | MTT | 2920 µM |
| C/C(=C\c1cn(CCN(C)C)c2ccc(C#N)cc12)C(=O)Nc1ccc(C(C)(C)C)cc1 | MTT | 2.1 µM |
| COC(=O)C1=C(C(=O)OC)C2N(C)c3ccc(OC)cc3[C@@]23C[C@@H](C(=O)OC)N(C(=O)CC(C)C)C3=N1 | XTT | >320 µM |
| C/C(=C\c1cn(C(=O)OCc2ccccc2)c2ccccc12)C(=O)Nc1ccc(C(C)(C)C)cc1 | MTT | 63.7 µM |
| CCOC(=O)c1c(CS(=O)(=O)c2ccccc2)n(C)c2ccc(CN3CCCC3)cc12 | resazurin | >50 µM |
| COc1cccc2c1c(/C=C(\C)C(=O)Nc1ccc(C(C)(C)C)cc1)cn2C(=O)OCc1ccccc1 | MTT | >100 µM |
| O=c1c2cc(F)c(Br)cc2sn1-c1ccccc1 | ATP | 12 µM |

Repeating the final 2 entries:

smiles | read by | value
COc1cccc2c1c(/C=C(\C)C(=O)Nc1ccc(C(C)(C)C)cc1)cn2C(=O)OCc1ccccc1 | MTT | >100 µM
O=c1c2cc(F)c(Br)cc2sn1-c1ccccc1 | ATP | 12 µM